From paper PMC7019903 (Viruses, 2020)

Tested on: Hantaan (HTNV) (strain 76–118)
Assay type: cell-based, Hantaan virus

Structure (SMILES)	fold more potent than RBV (HTNV EC50)	fold more potent than ETAR (HTNV EC50) [fold]	fold more potent than Favipiravir (HTNV EC50) [fold]
CCCNC(=O)Nc1ccc(-n2nc3cc(Cl)c(Cl)cc3n2)cc1 [2l]	ten-fold	–	–
O=C(Nc1ccc(-n2nc3cc(Cl)c(Cl)cc3n2)cc1)NC1CCCCC1 [2n]	ten-fold	2	37
COc1cc(C(=O)Nc2ccc(-n3nc4cc(Cl)c(Cl)cc4n3)cc2)cc(OC)c1OC [2j]	ten-fold	–	–
